pIC50: −log10 of the molar value.

Sequences of proteins named here, by UniProt entry; tags and fusion partners are left off. Residues count along the entry.
UniProt P09616, 27-319 limits assumed: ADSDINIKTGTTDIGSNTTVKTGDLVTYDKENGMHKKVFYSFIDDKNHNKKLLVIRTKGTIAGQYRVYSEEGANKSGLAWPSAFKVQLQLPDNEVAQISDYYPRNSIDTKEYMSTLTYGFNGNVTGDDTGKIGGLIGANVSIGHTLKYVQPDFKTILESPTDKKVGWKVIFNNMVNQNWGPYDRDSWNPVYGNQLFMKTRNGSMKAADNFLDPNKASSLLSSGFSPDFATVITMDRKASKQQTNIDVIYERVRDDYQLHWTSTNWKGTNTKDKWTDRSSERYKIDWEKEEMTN

We go through two compounds from US20120277184A1 (priority 2004, published 2012).

In one data set the target is α-HL (Staphylococcus aureus, UniProt P09616). Nature of the data set: Hemolysis assay, protection of rabbit erythrocytes from α-HL. The format is cell-based. The following applies: read-out: Inhibition of cytotoxicity IC50; Table 3 section 2; staphylococcal α-toxin; tested form: TFA.
In the next data set the target is LeTx (Bacillus anthracis, UniProt P13423). Nature of the data set: Inhibition of LeTx cytotoxicity in RAW 264.7 cells (MTS cell viability).

As for `NC(CSCc1ccccc1)C(=O)NCC1OC2OC3C(CNC(=O)C(N)CSCc4ccccc4)OC(OC4C(CNC(=O)C(N)CSCc5ccccc5)OC(OC5C(CNC(=O)C(N)CSCc6ccccc6)OC(OC6C(CNC(=O)C(N)CSCc7ccccc7)OC(OC7C(CNC(=O)C(N)CSCc8ccccc8)OC(OC8C(CNC(=O)C(N)CSCc9ccccc9)OC(OC1C(O)C2O)C(O)C8O)C(O)C7O)C(O)C6O)C(O)C5O)C(O)C4O)C(O)C3O` (stereo not drawn), the pIC50 at α-HL is 4.97. Also, the “Anti-LeTx activity / protection of RAW 264.7 cells from LeTx (in words)” value on LeTx (RAW 264.7 mouse macrophage cells, tested form: TFA) is “detectible level of LeTx inhibiting activity”.

`CO[C@@H]1[C@@H](OC)[C@H]2O[C@H]3[C@H](OC)[C@@H](OC)[C@@H](O[C@H]4[C@H](OC)[C@@H](OC)[C@@H](O[C@H]5[C@H](OC)[C@@H](OC)[C@@H](O[C@H]6[C@H](OC)[C@@H](OC)[C@@H](O[C@H]7[C@H](OC)[C@@H](OC)[C@@H](O[C@@H]1[C@@H](CN)O2)O[C@@H]7CN)O[C@@H]6CN)O[C@@H]5CN)O[C@@H]4CN)O[C@@H]3CN`: on LeTx (read-out: Inhibition of cytotoxicity IC50, Table 3 section 1, anthrax toxin), the pIC50 is 6.52.
